Results of single-concentration screens

Measurements from “University of Dundee, Small-Polar-MMV Screening Library” (2021), ChEMBL document CHEMBL3988442.

Values are the deposited “Percent Effect”, in %.
The record does not define 0% and 100%; most values in the screen are far below 50% and negative numbers occur (in some assays of this library far below -100).
This is part of a subset picked to be rich in strong results.
A dash means the value is not listed here; it may have been measured.

A: 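Phenotypic screen: M. tuberculosis growth, cholesterol and DPPC medium, 4 days; the read-out is not stated. Tested at 500 µM. Higher reads as more growth inhibition (inferred: compounds with an IC50 in retests scored well above the rest). Size under these conditions: about 18,000 compounds, about 900 of them at 50% or above in at least one test.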
B: 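Phenotypic screen: M. tuberculosis growth, glucose 7H9 medium, 3 days; the read-out is not stated. Concentration: 500 µM. Direction is inferred from retests: higher values go with more growth inhibition. About 18,000 compounds were tested under these conditions; 7.9% (about 1,400) showed 50% or more at least once.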

| # | SMILES | A | B |
|---|---|---|---|
| 1 | `Nc1cc(CN2CCOC(COCC3CC3)C2)ccn1` (centres unmarked) | - | 31.75% |
| 2 | `CN(CCS(N)(=O)=O)Cc1cccc(OC(F)(F)F)c1` | - | 44.71% |
| 3 | `CN1N=C(C(=O)NCCCN(C)S(C)(=O)=O)CCC1=O` | - | 3.131% |
| 4 | `O=C(Oc1nsnc1N1CCOCC1)c1ccccc1` | -9.24% | -4.035% |
| 5 | `O=C(CCN1CCC(O)CC1)N1CCc2ccccc21` | -7.046% | 6.824% |
| 6 | `COc1ccc2c(c1)OCC(CNC(=O)C(C)(C)N)C2` (centres unmarked) | 22.59% | 35.5% |
| 7 | `COc1c[nH]c(C(=O)NCCSC(F)(F)F)cc1=O` | -9.302% | 2.854% |
| 8 | `NC(=O)NC(=O)CSc1nnc(-c2ccccc2F)[nH]1` | -15.9% | 0.6955% |
| 9 | `NCc1ccnc(N2CCCC2)n1` | - | -19.02% |
| 10 | `Cn1ccc(NC(=O)COc2ccccc2)n1` | 9.217% | 43.86% |
| 11 | `Cc1cc(C)cc(C(=O)N2CCC3(CC2)OCCO3)c1` | 15.95% | - |
| 12 | `CN(C)CCNC(=O)c1cc(Br)c[nH]1` | - | 11.37% |
| 13 | `Cc1cc(NC(=O)NCc2cnn(C)c2C)ccn1` | - | 4.114% |
| 14 | `O=C(N[C@@H]1CCNC[C@H]1O)c1ccc(Cl)cn1` | - | 1.833% |
| 15 | `CSC1(C)C(=O)Nc2c(C#N)cccc21` (centres unmarked) | - | 9.526% |
| 16 | `CN(CCOc1ccc(F)cc1)CCC(N)=O` | 7.173% | - |
| 17 | `Cc1noc([C@@H]2CN(C3CCCC3)C[C@H]2CO)n1` | - | -13.4% |
| 18 | `CCc1n[nH]c(SCC(=O)NCCSc2cnn[nH]2)n1` | 0.05548% | 21.19% |
| 19 | `CC(CN1CCOCC1)C(=O)NCCn1cc(Cl)cn1` (centres unmarked) | - | -15.29% |
| 20 | `Cc1occc1C(=O)NCC(CO)Cc1cccs1` (centres unmarked) | 55.31% | 69.36% |
| 21 | `COC[C@@H]1CCCN1Cc1cc2n(n1)CCNC2` | - | -7.596% |
| 22 | `O=C(NCC1CCCNC1)c1ccccc1` (centres unmarked) | - | 30.63% |
| 23 | `O[C@H]1CC[C@@H](c2nc(C3CCOC3)n[nH]2)CC1` (some centres unmarked) | - | 3.942% |
| 24 | `CN(C(=O)c1ccccc1)S(=O)(=O)c1ccccc1` | 81.48% | 81.1% |
| 25 | `CC(C)NC(=O)Cc1ccsc1` | - | 5.763% |
| 26 | `CN(C)S(=O)(=O)c1ccc(COC(=O)C2CC2)o1` | 63.04% | 62.72% |
| 27 | `Nc1nc(SCCO)n[nH]1` | 3.553% | 7.469% |
| 28 | `CC(C)(C)C(=O)NCC(=O)Nc1ccccn1` | -8.306% | - |
| 29 | `CN(Cc1cnn(C)c1)C(=O)C1CCC(=O)NC1` (centres unmarked) | -3.566% | - |
| 30 | `CC(C)(C)[C@@H]1NC(=O)CC[C@H]1N` | - | 12.15% |
| 31 | `CCn1c(N)nc2cc(CO)ccc21` | 3.738% | - |
| 32 | `CC(=O)N1CCC(NS(=O)(=O)c2ccc(C)s2)CC1` | 3.514% | - |
| 33 | `CNCc1nc2c(s1)CCCC2` | 56.84% | 58.46% |
| 34 | `COCCN(Cc1cccs1)C(=O)C1CCNC1` (centres unmarked) | - | 3.643% |
| 35 | `CC(C)(C)OCCCN` | -3.837% | - |
| 36 | `O=S(=O)(CCNC1CCCSC1)NCC1CCC1` (centres unmarked) | 47.26% | - |
| 37 | `Nc1ncccc1CN1C[C@@H]2CCC[C@H](C1)C(=O)N2` | - | 24.29% |
| 38 | `Cc1ccc(C(=O)NCC(C)(C)N(C)C)o1` | - | -0.7409% |
| 39 | `CCc1cc2c(=O)n(CCN3CCNCC3)cnc2s1` | 10.79% | - |
| 40 | `CCN(CC(N)=O)Cc1ccc(Cl)s1` | - | 8.499% |
| 41 | `CC(C)N1CC(O)C1` | -2.817% | - |
| 42 | `CN(C)C(CNC(=O)c1ccncc1)c1ccco1` (centres unmarked) | -6.697% | 20.11% |
| 43 | `OC1CCCN(Cc2cccc(F)c2F)C1` (centres unmarked) | - | 27.37% |
| 44 | `CCc1nc(C)cc(N)n1` | - | -2.476% |
| 45 | `c1cc(C2CNCCN2)ccn1` (centres unmarked) | - | -13.27% |
| 46 | `CCC(NC(=O)c1ccc(O)cc1F)[C@H]1C[C@H](O)C1` (some centres unmarked) | - | 11.23% |
| 47 | `COc1cc(C)c(C(C)N)cc1OC` (centres unmarked) | 5.515% | - |
| 48 | `NC1CCCN(c2ccc(C(F)(F)F)cn2)C1` (centres unmarked) | 0.5564% | 25.77% |
| 49 | `CC(=O)Nc1nc(C(=O)NC2(C)CCS(=O)(=O)C2)cs1` (centres unmarked) | - | -5.027% |
| 50 | `Cc1nn(C)cc1S(=O)(=O)Nc1ccccn1` | 10.27% | - |
| 51 | `CCC(C)C(=O)NCCNc1ccc(C(F)(F)F)cn1` (centres unmarked) | 77.04% | 67.65% |
| 52 | `CC(C)Nc1ccc(F)cc1OCCO` | -5.43% | - |
| 53 | `CN(C)c1ncc(CN2CCC3(CCNCC3)C2)cn1` | - | 2.526% |
| 54 | `Cc1cc(C(=O)N(C)CC(=O)NC2CC2)c(C)o1` | -11.91% | - |
| 55 | `Cn1ccc(COC(=O)CCc2ccccc2)cc1=O` | - | 16.14% |
| 56 | `CCCNC(=O)Nc1ccc(N2CCOCC2)nc1` | - | -7.2% |
| 57 | `CCOC(=O)c1cnc(SC2CCOC2=O)nc1N` (centres unmarked) | - | -3.292% |
| 58 | `CCCN1CCC(Cc2noc(C3CCNC3)n2)CC1` (centres unmarked) | -2.218% | 3.83% |
| 59 | `CCCS(=O)(=O)NCCOc1ccc(C#N)cc1` | 68.68% | 62.88% |
| 60 | `c1ccc(CCNC2CC2)nc1` | - | 13.46% |
| 61 | `Cc1nnc(SCCCNC(=O)CC2CCCN2C)s1` (centres unmarked) | 0.1117% | - |
| 62 | `CC(C)Oc1ccccc1OCCN1CC(O)C1` | 3.816% | - |
| 63 | `CC(Sc1nc2ccccc2n1C)C(N)=O` (centres unmarked) | - | 3.592% |
| 64 | `NC(=O)CSc1nc(Cc2cccs2)n[nH]1` | -9.272% | 19.05% |
| 65 | `OC1CCN(Cc2ccccc2)C2(CC2)C1` (centres unmarked) | -6.315% | - |
| 66 | `Cc1ccc(C(C)(C)CN(C)C(=O)CCN)cc1` | - | 53.78% |
| 67 | `N[C@@H]1CCN(Cc2cc(F)cc(C(F)(F)F)c2)C[C@H]1O` | 41.99% | 60.36% |
| 68 | `CCOC(C)(C)CNC(=O)NCc1ccncc1` | - | -7.084% |
| 69 | `O=C(CNC1CC1)NCCc1ccc(F)cc1` | 65.21% | 67% |
| 70 | `CC(C)N(C)S(=O)(=O)N1CCc2sccc2C1C` (centres unmarked) | 84.37% | 83.66% |

The first 8 entries again:

SMILES	A	B
Nc1cc(CN2CCOC(COCC3CC3)C2)ccn1 (centres unmarked)	-	31.75%
CN(CCS(N)(=O)=O)Cc1cccc(OC(F)(F)F)c1	-	44.71%
CN1N=C(C(=O)NCCCN(C)S(C)(=O)=O)CCC1=O	-	3.131%
O=C(Oc1nsnc1N1CCOCC1)c1ccccc1	-9.24%	-4.035%
O=C(CCN1CCC(O)CC1)N1CCc2ccccc21	-7.046%	6.824%
COc1ccc2c(c1)OCC(CNC(=O)C(C)(C)N)C2 (centres unmarked)	22.59%	35.5%
COc1c[nH]c(C(=O)NCCSC(F)(F)F)cc1=O	-9.302%	2.854%
NC(=O)NC(=O)CSc1nnc(-c2ccccc2F)[nH]1	-15.9%	0.6955%